{
  "source": "paper PMC12043106",
  "about": "“Insight into antistaphylococcal effect of chlorinated 1-hydroxynaphthalene-2-carboxanilides” (ADMET & DMPK, 2025)",
  "key": {"[1]": {"tested_on": "MRSA SA 630 isolate", "assay": "Chemoproteomic analysis (comparative ABPP, LC-MS/MS)", "type": "cell-based, methicillin-resistant S. aureus", "settings": "MRSA SA 630 vs untreated control, heatmap"}, "[2]": {"tested_on": "Staphylococcus aureus ATCC 29213", "assay": "Chemoproteomic analysis (comparative ABPP, LC-MS/MS)", "type": "cell-based", "settings": "S. aureus ATCC 29213 vs untreated control, heatmap"}},
  "note": "“Also recorded” adds a separate entry of the source.",
  "data": [
    {"smiles": "O=C(Nc1ccc(Cl)c(Cl)c1)c1ccc2ccccc2c1O", "note": "[Compound 9]", "values": [
      {"measurement": "Downregulated proteins after treatment", "setting": "[1]", "result": "Uncharacterized oxidoreductase SAUSA300_2422 (Q2FE2); also recorded: Large ribosomal subunit protein uL2 (A5IV31), Uncharacterized lipoprotein SAS2259 (Q6G6V2), Dihydroneopterin aldolase (Q5HRN9), and aminoacyltransferase FemB (Q5HPG5)"},
      {"measurement": "Downregulated proteins after treatment", "setting": "[2]", "result": "Arsenate reductase (P0A005)"}
    ]},
    {"smiles": "O=C(Nc1cc(Cl)cc(Cl)c1)c1ccc2ccccc2c1O", "note": "[Compound 10, N-(3,5-dichlorophenyl)-1-hydroxynaphthalene-2-carboxamide]", "values": [
      {"measurement": "Downregulated proteins after treatment", "setting": "[1]", "result": "Uncharacterized oxidoreductase SAUSA300_2422 (Q2FE2)"},
      {"measurement": "Downregulated proteins after treatment", "setting": "[2]", "result": "Probable tautomerase SAV1363 (P67526), ribonuclease J2 (Q5HPR6), ATP-dependent protease ATPase subunit HslU (Q5HPT8), adenylosuccinate synthetase (P65884); also recorded: Arsenate reductase (P0A005)"}
    ]}
  ]
}
